Changes are numbered by the printed parent chain. The list shows a part of the results. Env chains of viruses from a treatment-interruption trial, translated from the printed DNA. IC50 / IC80 of two broadly neutralizing antibodies; lower = more sensitive virus; >50 µg/ml means not reached and <0.001 µg/ml is below the lowest dose. No active / inactive call.
B1: HIV-1 Env, rebound clone, placebo arm (protein)
chain: MRVMGTQRNYPLLWNWVMTIFWMIIIGNANQLWVTVYYGVPVWKEAETTLFCASDAKAYDTEVHNVWATHACVPTDPDPREIPLENVTEKFNIWKNDMVEQMHQDIISLWDQSLKPCVKLTPLCVTLHCTNATAINATVGNSTDMKNCSFNVTTIRRDKMQKEYALFYNLDIVQIDNSDSYRLVSCNTSVITQACPKVSFEPIPIHYCAPAGFAIIKCNNKTFNGTGPCTNVSTVQCTHGIKPVVSTQLLLNGSLAEEKIMIRSENITNSAKTIIVQLKKSVTINCTRPGNNTRKSIRIGPGQTYYATGAIIGDIRQAHCNVSKKEWMDTLQEVAKQLGEHFISAQNISFNSSSGGDVEITTHSFIRGGEFFYCNTTGLFNSTWIKNNTGINNDTWTIYNESSSNWTGTITLQCRIKQYVNLWQRVGRAMYAPPIRGDINCTSNITGLLLTRDGGGNKESQTFRPIGGDMRDNWRSELYKYKVVKIEPLGVAPTYAKRRVVGREKRAVGLGAVFLGFLGAAGSTMGAASITLTVQARQLLSGIVQQQSNLLQAIEAQQHLLRLTVWGIKQLQARVLALERYLRDQQLLGIWGCSGKLICPTTVPWNSSWSNKTVNEIWDNMTWLQWDKEISNYTETIYALIEQSQNQQEKNEQDLLALDKWANLWNWFDITKWLWYIKIFIMIVGGLIGLRIVFAVFSLVNRVRQGYSPLSFQILTHRQREPDRPGRIEEEGGEQDRDRSVRLVSGFLALAWDDLRSLCLFLYHRLRDFVLIATRGVELLGHSILKGLRLGWEALKHLWNLLSYWSQELKNSAISLFDTIAIAVANWTDRIIELGQAAGRAILHIPRRIRQGLERALL
B2: HIV-1 Env, rebound clone, placebo arm (protein)
chain: MRVMGTQRNYPRFWNWVMIIFWMIIIGNANQLWVTVYYGVPVWKEAETTLFCASDAKAYDTEVHNVWATHACVPTDPDPREIPLENVTEKFNIWKNDMVEQMHQDIISLWDQSLKPCVKLTPLCVTLNCTNINATGSIVGNSTDMKNCSFNVTTIRRDKMQKEYALFYNLDIVQIDNSDNSSYRLVSCNTSVITQACPKVSFEPIPIHYCAPAGFAIIKCNNKTFNGTGPCTNVSTVQCTHGIKPVVSTQLLLNGSLAEEKIMIRSENITNSAKTIIVQLNESVTINCTRPGNNTRKSIRIGPGQTYYATGAIIGDIRQAHCNVSKEKWMSTLQKVAKQLGEHFISAQNISFNSSSGGDVEITTHSFICGGEFFYCNTTGLFNSTWMIRNNTYNENSSNESGTITLQCRIKQYVNLWQRVGRAMYAPPIRGDINCTSNITGLLLTRDGGGNNESETFRPIGGDMRDNWRSELYKYKVVKIEPLGVAPTYAKRRVVGREKRAVGLGAVFLGFLGAAGSTMGAASITLTVQARQLLSGIVQQQSNLLKAIEAQQHLLRLTVWGIKQLQARVLALERYLRDQQLLGIWGCSGKLICPTTVPWNSSWSNKTFNEIWDNMTWLQWDKEISNYTETIYALIEQSQNQQEKNEQDLLALDKWANLWNWFDITKWLWYIKIFIMIVGGLIGLRIVFAVFSLVNRVRQGYSPLSFQILTHRQREPDRPGRIEEEGGEQDRDRSVRLVSGFLALAWDDLRSLCLFLYHRLRDSVLIATRGVELLGHSILKGLRLGWEALKHLWNLLSYWSQELKNSAISLFDTIAIAVANWTDRAIELGQAAGRAILHIPRRIRQGLERALL
B3: HIV-1 Env, rebound clone, placebo arm (protein)
chain: B2 chain with I82T
B4: HIV-1 Env, rebound clone, placebo arm (protein)
chain: B2 chain with M23I
B5: HIV-1 Env, rebound clone, placebo arm (protein)
chain: MRVMGTQRNYPLFWNWVIIIFWIIIIGNANKLWVTVYYGVPVWKEAETTLFCASDAKAYNTEVHNVWATHACVPTDPDPREIPLENVTEEFNIWKNDMVEQMHQDIISLWDQSLKPCVKLTPLCVTLNCTNATPINATGSIEGNSTDMKNCSFNVTTIRRDKMQKEYALFYNLDIVQIDDSDNSSYRLVSCNTSVITQACPKVSFEPIPIHYCAPAGFAIIKCNNKTFNGTGPCTNVSTVQCTHGIKPVVSTQLLLNGSLAEEKIMIRSENITNSAKTIIVQLNESVTINCTRPGNNTRKSIRIGPGQTYYATGAIIGDIRQAHCNVSKEKWMSTLQKVAKQLGEHFISAQNISFNSSSGGDVEITTHSFICGGEFFYCNTTGLFNSTWMIRNNTWNYNESSSNWTGTITLQCRIKQYVNLWQRVGRAMYAPPIRGDINCTSNITGLLLTRDGGGNNESETFRPIGGDMRDNWRSELYKYKVVKIEPLGVAPTYAKRRVVGREKRAVGLGAVFLGFLGAAGSTMGAASITLTVQARQLLSGIVQQQSNLLQAIEAQQHLLRLTVWGIKQLQARVLALERYLRDQQLLGIWGCSGKLICPTTVPWNSSWSNNKTFNEIWDNMTWLQWDREISNYTEIIYALIEQSQNQQEKNEQDLLALDKWANLWNWFDITNWLWYIKIFIIIVGGLIGLRIVFAVFSLVNRVRQGYSPLSFQILNHRQQEPDRPGRIEEEGGEQDRDRSVRLVSGFLALAWDDLRSLCLFLYHRLRDSVLIATRGVELLGHSILKGLRLGWEALKHLWNLLSYWSQELKNSAISLFDTIAIAVANWTDRAIELGQAAGRAILHIPRRIRQGLERALL
B6: HIV-1 Env, rebound clone, placebo arm (protein)
chain: MRVKGIKKNYQRLWRWGTMLLGLLMICNAEKLWVTVYYGVPVWKEATTTLFCASDAKGYDTEAHNVWATHACVPTDPNPQEIDLVNVNESFNMWKNNMVEQMHQDIISLWDQSLKPCVRLTPLCVKLNCTDLKKGNSTQNTTNATKLEEKGEGEVKNCSFNITTNYNDKKQQEYAFFYNLDVVKVGDNDTSYRLISCNTSVVTQACPKINFDPIPIHYCAPAGFAILKCKDKKFNGTGICTNVSTVQCTHGIKPVVSTQLLLNGSLAEEEVVIRSENFTNNAKTIIVQLNEAVAINCTRPNNNTRKSIHMGPGKAFYTTGDIIGDIRQAHCNISKGEWNKTLSRVVEKLQGQFGNKTINFNQSSGGDPEIVMHSFNCAGEFFYCNTTGLFNSTWISPSNSTWNNTWNSTENIGENITLPCRIKQIVNRWQEVGKAIYAPPIKGPISCSSNITGILLTRDGGNDNITNNTETFRPGGGDMRDNWRSELYKYKVVEIKPLGVAPTKAKRRVVQREKRAVGLGAVLFGFLGAAGSTMGAASVTLTVQARQLLSGIVQQQNNLLKAIEAQQHLLQLTVWGIKQLQARVLAVERYLRDQQLLGLWGCSGKLICTTAVPWNTSWSNKSMTQIWNHTTWMQWEREIDNYTNIIYNLIEDSQNQQEQNEKELLELDKWASLWNWFDITNWLWYIKLFIMIVGGLIGLRIVFAVLSIVKRVRQGYSPLSLQTLLPTQRGPDRPEGIEEGGGERDRDRSRRLVDGFLALIWDDLRSLCLFSYHRLRDLLLIVTRIVGLLGRRGWDILKYWWNLLQYWIQELKNSAVSLLNYTAIAVAEGTDRIIEVLQRIFRAVLHIPTRIRQGLERALV

Biological target: antibody 10-1074
Assay: neutralization IC50; higher = virus less sensitive to the antibody
Description: (§1)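 Pseudovirus bearing the Env chain mixed with antibody, from 50 µg/ml in fivefold dilutions, on TZM-bl reporter cells, in duplicate.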

Compared with B1, B2 is 2-fold higher in “neutralization IC50” value: 0.001 µg/mL for the first, 0.002 µg/mL for the second.

Compared with B3, B4 is 3-fold lower in “neutralization IC50” value: 0.003 µg/mL for the first, 0.001 µg/mL for the second.

First: B5
Second: B6
The “neutralization IC50” value of the first is 6-fold lower: 0.013 µg/mL for the first, 0.078 µg/mL for the second.

Biological target: antibody 3BNC117
Assay: as above
Description: as §1

First: B1
Second: B2
The “neutralization IC50” value of the first is 27-fold lower: 0.137 µg/mL for the first, 3.71 µg/mL for the second.

B3 and B4 are the same in “neutralization IC50” value: 2.25 µg/mL for the first, 2.25 µg/mL for the second.

Compared with B5, B6 is 19-fold lower in “neutralization IC50” value: 4.76 µg/mL for the first, 0.257 µg/mL for the second.

Biological target: antibody 10-1074
Assay: neutralization IC80; higher = virus less sensitive to the antibody
Description: as §1

B1 and B2 are within 1.5-fold of each other in “neutralization IC80” value: 0.01 µg/mL for the first, 0.008 µg/mL for the second.

First: B3
Second: B4
The “neutralization IC80” value of the first is 2.6-fold higher: 0.013 µg/mL for the first, 0.005 µg/mL for the second.

Going from B5 to B6, the “neutralization IC80” value rises from 0.037 µg/mL to 0.262 µg/mL (7.1-fold).

Biological target: antibody 3BNC117
Assay: as above
Description: as §1

First: B1
Second: B2
The “neutralization IC80” value of the first is lower: 1.89 µg/mL for the first, greater than 50 µg/mL for the second.

First: B3
Second: B4
The “neutralization IC80” value of the first is lower: 43.3 µg/mL for the first, greater than 50 µg/mL for the second.

Going from B5 to B6, the “neutralization IC80” value falls from greater than 50 µg/mL to 0.524 µg/mL.

From the supplement of paper PMC12637763
